Reference: PubChem BioAssay AID2302 (GlaxoSmithKline (GSK), 2010)
The list shows a part of the results, in another mix than the full data. Calls of active or inactive are those of the source.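 The calls were made as follows: active = growth inhibition above 50% at the single 2 µM test dose, taken to imply half-maximal potency below 2 µM; inactive = the rest.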

experiment: antimalarial activity against Dd2 strain (AID 2302);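 also: 0% = DMSO untreated growth and 100% = chloroquine plus artemisinin killed control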; conditions: P. falciparum Dd2 in RBCs, LDH growth readout, 72 h; at 2 µM; active compounds read high

**Q.** With CC(C)(C)c1cc2cc(N(C(=O)c3ccc(C(F)(F)F)cc3)C3CCN(Cc4ccccc4)CC3)ccc2[nH]1 as the compound, how does the growth inhibition read?
**A.** The growth inhibition was inactive: 22%.

**Q.** With Cn1c(=O)n(C2CCN(CCCC(c3ccc(F)cc3)c3ccc(F)cc3)CC2)c2ccccc21 as the compound, how does the growth inhibition read?
**A.** The growth inhibition was inactive: 2%.
